In article PMC9318713:

What follows are sequences tested against T1, ancrod (recombinant SVSP) (UniProt P26324) (assay: fluorescence bead binding assay). Details: 2 mM Mg2+, high Kd, no value, Kd: 50 mM Tris-HCl pH 7.5, 150 mM NaCl, 2 mM MgCl2, RT, 1 h, toxin on Sepharose beads, ALISA: 100 ng toxin coated, aptamer in nuclease-free water, 2 h, PBST washes, recombinant protein, label: 6-FAM, single-stranded DNA.
T1 sequence (looked up, limits assumed): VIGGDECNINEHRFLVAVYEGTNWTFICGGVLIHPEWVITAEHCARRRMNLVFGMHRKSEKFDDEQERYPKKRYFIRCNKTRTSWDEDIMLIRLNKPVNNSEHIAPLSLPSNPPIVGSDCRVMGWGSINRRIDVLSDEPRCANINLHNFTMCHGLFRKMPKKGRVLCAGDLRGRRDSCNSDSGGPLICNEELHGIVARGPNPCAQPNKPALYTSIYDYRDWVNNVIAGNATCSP

Row | Sequence | binding result
1 | TGCTCACACGTCCTGTGTGATTATGTCAGGCATTCACATG [ancrod-1] | binds more weakly
2 | TGTCTGGTTTGCAAAGGACTGCTGTACTGTTAGCTTTTGT [ancrod-18] | binds more weakly
3 | TAGTAACAGGTCTGCTTAGGCTTGCGAGGAATACTAGTAC [ancrod-48 (printed ncrod-48)] | binds more weakly
4 | TGCTGGGAAATCCTCCCATTATGTCAGTATGTCTCGACAT [ancrod-2] | binds more weakly
5 | ACGCTTGATCCTCCGAAATGTCCTGATCCTCGGCCTGTCA [ancrod-5] | binds more weakly
6 | TATTAAGGGACTGCTCGGGATTGCGGATATAGGTATGAGC [ancrod-30] | binds more weakly
7 | GGTGCGTTTCACCTCGAGTTTACGATAAATCACCTTCGAG [ancrod-25] | binds more weakly
8 | GTGTATTGTGATAGTCGGTAATTCCCTGACTACGCCGTAT [ancrod-31] | binds more weakly
9 | TTGGGCCCTCTAGTGATGGATATCTGCAGAATTCGCCCTT [ancrod-32] | binds more weakly
10 | GTAAATTGTACAGGTGTATGGATTGCTAGGTCTGCTGGTT [ancrod-12] | binds more weakly

For at least one entry, the source does not settle the construct or the ends of the probe. A weaker result is weaker than the reference pair of the same experiment. At least one verdict rests on a figure or table, not on a statement of the authors. Where a protein sequence is shown, tags need not be part of it.
